Results deposited as PubChem BioAssay AID1224833 (University of Georgia, 2016).
Shown is an unselected part of about 12,000 reagents tested. About 5,600 of all reagents (46%) count as active. 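Active calls cover z-scores past 1 in both directions, so they include lowered as well as raised rotavirus replication.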 Entries without a mark were called inactive.

Purpose: 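Host factors restraining rotavirus as candidate antiviral genes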 (primary screen)
System: monkey MA104 kidney cells
Reagents: siRNA pool against human genes, 50 nM
Timing: 48 h knock-down before infection; read 24 h after infection
Challenge: infection with rotavirus strain RV3 two days after transfection; infectious dose for this stage not given
Measured: 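Rotavirus antigen per well by fluorescent immunoassay, normalised to non-targeting control wells on each plate and given as a standard z-score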
Reading the numbers: z-score vs non-targeting control: higher = more rotavirus replication than with non-targeting control
Rule for the call: In these data the active calls have z-score vs non-targeting control at about -1 or lower, or at about 1 or higher
Calls: active = z-score beyond 1 either way; inactive = z-score within 1 of zero

ZBTB5 scored z-score vs non-targeting control -0.693.
Against CHRD the deposit lists z-score vs non-targeting control 0.162.
Depletion of BBX came out at: z-score vs non-targeting control 0.105.
Knock-down of CRY1 came out at: z-score vs non-targeting control -1.1 (active).
Against TIMM21, the entry reads z-score vs non-targeting control -0.615.
For MOB1A, the values are z-score vs non-targeting control -1.13 (active).
Depletion of B4GALT2 gave: z-score vs non-targeting control 1.38 (active).
KITLG showed z-score vs non-targeting control -0.206.
Silencing of COL24A1 came out at: z-score vs non-targeting control -1.18 (active).
STX6 scored z-score vs non-targeting control 0.388.
For LYPLA1, the entry reads z-score vs non-targeting control -1.72 (active).
Knock-down of ANKRD22 came out at: z-score vs non-targeting control -2.24 (active).
After knock-down of OR2AE1, the screen gave z-score vs non-targeting control -1.17 (active).
IMPDH1 scored z-score vs non-targeting control 0.896.
Silencing of RAB15 came out at: z-score vs non-targeting control 0.156.
Silencing of SPATA6 came out at: z-score vs non-targeting control -0.601.
For SNRPD1, the entry reads z-score vs non-targeting control -2.02 (active).
ZNF687 gave z-score vs non-targeting control -0.756.
Against C5 the deposit lists z-score vs non-targeting control 0.255.
After knock-down of CLDN4 the results were z-score vs non-targeting control -0.813.
For NECTIN3, the entry reads z-score vs non-targeting control 0.59.
With knock-down of RPL23, the screen gave z-score vs non-targeting control -0.144.
POT1 scored z-score vs non-targeting control -0.715.
For KLK7, the entry reads z-score vs non-targeting control 0.791.
Against NAP1L4 the deposit lists z-score vs non-targeting control -0.751.
With knock-down of BLMH the results were z-score vs non-targeting control 1.24 (active).
With knock-down of CFAP263 the results were z-score vs non-targeting control 0.607.

Copied from the list.
Result of ANKRD22 under “z-score vs non-targeting control”: -2.24 (active)
For “z-score vs non-targeting control”, ZBTB5 shows -0.693
SPATA6, z-score vs non-targeting control → -0.601
Value of CFAP263 in “z-score vs non-targeting control”: 0.607
Under “z-score vs non-targeting control”, B4GALT2 shows 1.38 (active)

Additional results:
For KIAA0319, the entry reads z-score vs non-targeting control 0.453.
WDR13 gave z-score vs non-targeting control -2.03 (active).
Depletion of ARL4C came out at: z-score vs non-targeting control -0.157.
Depletion of CNPY2 resulted in: z-score vs non-targeting control -0.408.
Knock-down of EPB41L2 resulted in: z-score vs non-targeting control -1.55 (active).
CDHR5 scored z-score vs non-targeting control -0.859.
After knock-down of MAD2L1BP, the screen gave z-score vs non-targeting control 0.14.
After knock-down of EVC2 the results were z-score vs non-targeting control 0.755.
Knock-down of PARD6A gave: z-score vs non-targeting control -1.22 (active).
Knock-down of IL31 gave: z-score vs non-targeting control -3.28 (active).
PBX4 scored z-score vs non-targeting control -0.622.
Knock-down of CYB5R4 came out at: z-score vs non-targeting control -1.67 (active).
With knock-down of SERPINH1, the screen gave z-score vs non-targeting control -2.18 (active).
Depletion of NUTM1 came out at: z-score vs non-targeting control -1.46 (active).
For TIMM9, the entry reads z-score vs non-targeting control 0.94.
Silencing of POU2F1 came out at: z-score vs non-targeting control 1.32 (active).
BRS3 showed z-score vs non-targeting control -1.11 (active).
Knock-down of IGFBP1 gave: z-score vs non-targeting control 0.785.
After knock-down of HIP1R, the record shows z-score vs non-targeting control 0.0798.
Silencing of OVOL1 came out at: z-score vs non-targeting control 0.759.
